Experimental findings from publication PMC6085468 are described below.

The exact form of at least one protein or probe is not confirmed.

This data set has as its system RpoE1-His6 + core RNA polymerase. As to the kind of experiment: EMSA. The conditions noted are these: with E. coli core RNAP; 10 mM Tris, 50 mM KCl, 1 mM DTT, pH 7.5, room temperature 20 min; 4% PAGE in 0.5x TBE; recombinant protein; protein details: 6xHis (N-terminal, pET30a); label: FAM (primer labeled); probe letters rebuilt from the primers and the genome.

Turning to “GCGAGCGATCGCAGATGTTTAGCGCGCCTTCGCGCATCTGCGTGCCGAACACCGCATCCGTACGCCCACGCATCGTCCTGTGATGCACCGTCAAGATACGCCGGCGCATCGTCTGGCCTTCGTCGCTATGCAGGTGCGGGATCCACTTCGCAGTTTGCAAGACAGAGTGAGAATTTTTGAATTTCTAGCTGCTGCGAAGTGAGAAATTCTATTGGATCCGCTGCATACAATCGTTTGCGCCCACCACAACGGCGCCTTTTGTTGTTTTTGCTCCTCCCCTTCAGAGAGCCCGGCATGATCCTTTCGACCTACTTCGCAGCGATCTCTGCGTTGTCTTACGCAGACCGTCTTCCG (double strand) [PhrpX]”, the binding result is recorded as “binds”.
